Pooled drug test results. Numbers come from NIAID ChemDB, via PubChem.

Shared fields: tests in culture; organism: Mycobacterium tuberculosis

Blank or dashed fields: not listed here. Inhibition is in % at the dose shown (toxicity tests: loss of growth or viability). MIC50, MIC90 and the like: level of inhibition, or share of isolates inhibited. ECn is the concentration giving n% inhibition of infection, replication or growth. Lines come from different laboratories, so protocols vary. a–b is a range or a potency band. MIC bound: limit read from a one-dose screen.

smiles	method	read-out	setting	mutations	strain or isolate	cells	tested at	value
CCCNC(=O)c1cc(C2C3CC4CC(C3)CC2C4)c2ccccc2n1	BACTEC	inhibition			H37Ra		6.25 µg/mL	3%
O=C1NC(Nc2ccccc2)=N/C1=C\c1c(Cl)cccc1Cl		inhibition			H37Rv		12.5 µg/mL	1%
O=C1OC(CO)C(OC2OC(CO)C(O)C(O)C2O)C(O)C1O	BACTEC	inhibition			H37Rv		12.5 µg/mL	11%
Cc1cn2c(C(=O)NCc3ccc(N4CCOCC4)c(F)c3)c(C)nc2s1	resazurin / fluorescence	MIC		QcrB7 S182P	H37Rv			25 µM
COc1ccc(C(=O)/C=C/c2ccc(F)cc2)c(F)c1	MTT	MIC	7 d		H37Rv			32 µg/mL
NNC(=O)c1cc(C2C3CC4CC(C3)CC2C4)c2ccccc2n1	BACTEC	MIC			H37Ra			6.25 µg/mL
COc1ccc(C(=O)/C=C/c2ccc(F)cc2Cl)cc1	resazurin	MIC	14 d		H37Rv			64 µg/mL
C[C@]1(COc2ccc(N3CCC(Oc4ccc(OC(F)(F)F)cc4)CC3)cc2)Cn2cc([N+](=O)[O-])nc2O1		MIC90			31 strains (INH-susceptible)			0.012 µg/mL
O=C1C2=C(OCO2)C(=O)C2=C1OCO2	BACTEC	MIC bound			H37Rv			>12.5 µg/mL
COc1ccc(C(=O)/C=C/c2ccc(F)cc2)cc1F	resazurin	MIC	7 d		H37Rv			128 µg/mL
CC1(C)S[C@@H]2[C@@H](NC(=O)CCCC(N)C(=O)O)C(=O)N2[C@@H]1C(=O)O	BACTEC	MIC bound			H37Rv			>12.8 µg/mL
CCNc1nnc(-c2ccc(NC(=S)Nc3ccccc3)cc2)s1		EC50			H37Rv			>6.25 µg/mL
CC(C)Cc1ccc(C(=O)CCC(=O)NC[C@H]2CN(c3ccc(N4CCCCC4)c(F)c3)C(=O)O2)cc1		MIC			ATCC 27294			>16 µg/mL
CCCCCCCCCCCCCCCOC(COC[C@H]1O[C@@H]2OC(C)(C)O[C@@H]2[C@H]2OC(C)(C)O[C@H]21)C[N+]1=NC([N+](=O)[O-])N=C1	agar	MIC			H37Rv			6.25 µg/mL
O=Cc1ccc(Sc2nnc(N3CCN(c4nc(N5CCN(c6ccccc6)CC5)c5ccccc5n4)CC3)o2)cc1	agar / visual reading	MIC			H37Rv			25 µg/mL
COc1cc2c3c(c1OC)-c1cc4c(cc1CC3N(C=O)CC2)OCO4	resazurin	MIC			SIN452			>50 µg/mL
CCn1cc(C(=O)O)c(=O)c2cc(F)c(N3CCN(C)CC3)cc21		MIC50			55 isolates (RMP INH-R)			8 µg/mL
Cc1ccc(-c2cc(CN3CCOCC3)c(C)n2-c2ccc(Cl)cc2)cc1		MIC90			H37Rv			42.45 µM
Cc1cn2c(C(=O)NCc3ccc(N(C)C)cc3)c(C)nc2s1	resazurin / fluorescence	MIC			H37Rv			0.246 µM
COc1ccc2c(c1)CCC1=C2CCS1(=O)=O	resazurin	inhibition			H37Rv		6.25 µg/mL	-5%
Cc1cn2c(C(=O)NCc3ccc(C(F)(F)F)cc3)c(C)nc2s1	resazurin / fluorescence	MIC		cydKO	H37Rv			0.047 µM
CO[C@H]1/C=C/O[C@@]2(C)Oc3c(C)c(O)c4c(O)c(c5c(c4c3C2=O)NC2(CCN(CC(C)C)CC2)N=5)=NC(=O)/C(C)=C\C=C\[C@H](C)[C@H](O)[C@@H](C)[C@@H](O)[C@@H](C)[C@H](OC(C)=O)[C@@H]1C		MBC			131-4			0.125 µg/mL
O=[N+]([O-])c1cn2c(n1)OC[C@@H](OCc1ccc(Cc3ccc(F)cc3)cc1)C2	resazurin	MIC90						0.06 µM
COc1cccc2c1cc1c3c(cc4c(c32)OCO4)C(=O)N1	resazurin	MIC			H37Rv			12.5 µg/mL
O=C(c1ccccc1)c1nn2cc(-c3ccccc3)c(-c3ccccc3)c(-c3ccccc3)c2c1C(=O)c1ccccc1	resazurin	MIC			H37Rv			>6.25 µg/mL
Cc1ccc(-c2cc(CN3CCOCC3)c(C)n2-c2ccc(F)cc2)cc1		MIC		V681I	H37Rv DR1			5.4 µM
O=C(/C=C/c1ccccc1)c1ccc(F)cc1	MTT	MIC	7 d		H37Rv			32 µg/mL
O=C1NC(Nc2ccccc2)=N/C1=C\c1ccc(Cl)cc1Cl		MIC			H37Rv			>6.25 µg/mL
CC(C)N1CCN(c2cc3c(cc2F)c(=O)c(C(=O)O)cn3C2CC2)CC1		MIC50						0.125 µg/mL
O=C(CCC(=O)c1ccc(F)cc1F)NC[C@H]1CN(c2ccc(N3CCOCC3)c(F)c2)C(=O)O1		MIC			10 clinical isolates sensitive			1–4 µg/mL
O=C(Nc1ccc(C2=NCCN2)cc1)c1cncc(C(=O)Nc2ccc(C3=NCCN3)cc2)c1	BACTEC	MIC			H37Rv			≥12.5 µg/mL
COc1ccc(C(=O)/C=C/c2ccccc2Cl)c(F)c1	resazurin	MIC	14 d		H37Rv			32 µg/mL
C[C@@H]1CC[C@@]2(NC1)O[C@H]1C[C@H]3[C@@H]4CC=C5C[C@@H](O[C@@H]6O[C@H](CO)[C@@H](O[C@@H]7O[C@@H](C)[C@H](O)[C@@H](O)[C@H]7O)[C@H](O)[C@H]6O[C@@H]6O[C@@H](C)[C@H](O)[C@@H](O)[C@H]6O)CC[C@]5(C)[C@H]4CC[C@]3(C)[C@H]1[C@@H]2C	BACTEC	MIC			H37Rv			≥12.5 µg/mL
C[C@]1(COc2ccc(N3CCC(Oc4ccc(OC(F)(F)F)cc4)CC3)cc2)Cn2cc([N+](=O)[O-])nc2O1		MIC			ATCC 35837 (H37RV-E-R)			0.012 µg/mL
O=C(Nc1ccc([N+](=O)[O-])cc1)c1cc(C2C3CC4CC(C3)CC2C4)c2ccccc2n1	BACTEC	MIC			H37Ra			>6.25 µg/mL
Cc1ccc(Nc2ccc(N=Nc3ccc(N=Nc4cccc(S(=O)(=O)O)c4)c4ccccc34)c3cccc(S(=O)(=O)O)c23)cc1	BACTEC	inhibition			H37Rv		128 µg/mL	75%
O=C1NC(=NCc2ccc(F)cc2)N/C1=C\c1ccccc1Cl		MIC			H37Rv			>6.25 µg/mL
COc1ccccc1Sc1nnc(N2CCN(c3nc(N4CCN(c5ccccc5)CC4)c4ccccc4n3)CC2)o1	agar / visual reading	inhibition			H37Rv		100 µg/mL	91%
O=[N+]([O-])c1cn2c(n1)OC[C@@H](OCc1ccnc(N3CCN(c4ccc(OC(F)(F)F)cc4)CC3)c1)C2	low oxygen	MIC90						1 µM
O=C(/C=C/C(=O)c1ccccc1)NC[C@H]1CN(c2ccc(N3CCOCC3)c(F)c2)C(=O)O1		MIC			ATCC 27294			>16 µg/mL
O=C1NOCC1N=Cc1cc(Cl)ccc1O	BACTEC	MIC			H37Rv	VERO		12.5 µg/mL
NNC(=O)Cc1cc(C2CCCCC2)nc2ccccc12	BACTEC	MIC			H37Ra			>6.25 µg/mL
COc1c(N2CCNC(C)C2)c(F)cc2c(=O)c(C(=O)O)cn(C3CC3)c12		MIC			35 strains			8 µg/mL
Cc1cn2c(C(=O)NCc3ccc(N4CCN(c5ccc(C(F)(F)F)cn5)CC4)c(F)c3)c(C)nc2s1	resazurin / fluorescence	MIC		QcrB7 S182P	H37Rv			0.15 µM
Cc1ccc(Nc2nc(NS(=O)(=O)c3cc(C(=O)Nc4ccc(Cl)cc4)c(Cl)cc3S)n[nH]2)cc1	resazurin	MIC bound			H37Rv			>6.25 µg/mL
CC1(C)O[C@H]2[C@@H](O1)[C@@H](COCC(O)Cn1cnc([N+](=O)[O-])c1)O[C@@H]1OC(C)(C)O[C@@H]12	agar	MIC			H37Rv			1.56 µg/mL
NNC(=O)c1cc(C2CCCCC2)nc2ccccc12	BACTEC	inhibition			H37Ra		6.25 µg/mL	2%
CC(C)Cc1ccc(C(=O)CCC(=O)NC[C@H]2CN(c3ccc(-n4cncn4)c(F)c3)C(=O)O2)cc1		MIC			10 clinical isolates resistant			2–8 µg/mL
O=C(SCc1oc2ccccc2c1O)c1ccccc1	BACTEC	MIC bound			H37Rv			>12.5 µg/mL
O=[N+]([O-])c1cn2c(n1)OC[C@@H](OCc1ccc(/C=C/c3ccc(C(F)(F)F)nc3)cc1)C2	resazurin	MIC90						0.045 µM
S=C(Nc1ccccc1)Nc1ccc(-c2nnc(NC3CCCCC3)s2)cc1		inhibition			H37Rv		6.25 µg/mL	67%
CCCN1CCN(c2cc3c(cc2F)c(=O)c(C(=O)O)cn3C2CC2)CC1		MIC90						0.25 µg/mL
NC(=O)c1cnccn1	BACTEC / fluorescence	inhibition			H37Rv		3.12 µg/mL	99%
COc1ccc(-n2c(-c3ccc(C(C)C)cc3)cc(CN3CCOCC3)c2C)cc1		MIC90			H37Rv			23.82 µM
O=C1NC(Nc2ccccc2)=N/C1=C\c1ccccc1Cl		inhibition			H37Rv		12.5 µg/mL	93%
O=[N+]([O-])c1cn2c(n1)OC[C@@H](OCc1ccc(N3CCN(c4ccc(OC(F)(F)F)cc4)CC3)nc1)C2	low oxygen	MIC90						0.9 µM
C=C(C)/C=C/[C@]12C[C@H](C)[C@H]3CC[C@](C)(N)[C@@H](CC[C@H]1C)[C@@H]32		inhibition			H37Rv		32 µg/mL	100%
COC(=O)c1cc2ccc(O)c(O)c2cn1.Cl	BACTEC	MIC bound			H37Rv			>12.5 µg/mL
Cc1ccc(NNC(=O)N2CCN(c3nc(N4CCN(c5ccccc5)CC4)c4ccccc4n3)CC2)cc1	BACTEC / fluorescence	inhibition			H37Rv		6.25 µg/mL	0%
O=C1C(N=Nc2ccc(Cl)cc2)Sc2nc3ccccc3n21	BACTEC	MIC			H37Rv			≥12.5 µg/mL
Cc1ccccc1Nc1nnc(-c2ccc(NC(=S)Nc3ccccc3)cc2)s1		MIC			H37Rv			>6.25 µg/mL
CCCCNC(=O)c1cc(C2C3CC4CC(C3)CC2C4)c2ccccc2n1	BACTEC	MIC			H37Ra			>6.25 µg/mL
CCc1ccc(-c2cc(CN3CCOCC3)c(C)n2-c2ccc(F)cc2)cc1		MIC		Q40R	H37Rv DR7			0.16 µM
O=[N+]([O-])c1cn2c(n1)OC[C@@H](OCc1ccc(S(=O)(=O)NCc3ccc(OC(F)(F)F)cc3)cc1)C2	low oxygen	MIC90						9.5 µM
O=c1oc2c(-c3c(O)c(=O)oc4ccccc34)cc(O)cc2s1	BACTEC	inhibition			H37Rv		12.5 µg/mL	20%
CC1(C)O[C@H]2[C@@H](O1)[C@@H](COCC(O)C[N+]1=NC([N+](=O)[O-])N=C1)O[C@@H]1OC(C)(C)O[C@@H]12	agar	MIC			H37Rv			12.5 µg/mL
O=C(NNc1ccccc1[N+](=O)[O-])N1CCN(c2nc(N3CCN(c4ccccc4)CC3)c3ccccc3n2)CC1	BACTEC / fluorescence	MIC			H37Rv			>6.25 µg/mL
NNC(=O)CNc1cccc(Cl)c1F	BACTEC	inhibition			H37Rv		12.5 µg/mL	25%
NNC(=O)c1ccncc1		MIC			Pan-susceptible clinical isolate 2			0.06 µg/mL
COc1cccc(/C=C/C(=O)c2ccc(F)cc2)c1F	MTT	MIC	7 d		H37Rv			32 µg/mL
O=C(CNC(=O)OCc1ccccc1)NC(CO)C(=O)O	BACTEC	MIC			H37Rv			≥12.8 µg/mL
Cc1nc([N+](=O)[O-])cn1C[C@H]1O[C@@H]2OC(C)(C)O[C@@H]2[C@H]2OC(C)(C)O[C@H]21	agar	MIC			H37Rv			>12.5 µg/mL
Cc1cc2nc3ccc(N=Nc4ccc(N(C)C)cc4)cc3n(-c3ccccc3)c-2cc1=N	BACTEC	MIC			H37Rv			0.2 µg/mL
O=[N+]([O-])c1cn2c(n1)OC[C@@H](OCc1ccc(N3CCC(Oc4ccc(OC(F)(F)F)cc4)CC3)cc1)C2	resazurin	MIC90						0.02 µM
COc1cccc(C(=O)N[C@@H]2[C@H](O)[C@@H](CO)O[C@H]2n2cnc3c(N)ncnc32)c1	BACTEC	inhibition			H37Rv		12.5 µg/mL	0%
O=[N+]([O-])c1cn2c(n1)OC[C@@H](OCc1ccc(/C=C/c3ccc(F)cc3)cc1)C2	resazurin	MIC90						0.02 µM
C=CCSS/C=C/CS(=O)CC=C		MIC			KM-R			>12.5 µg/mL
NNC(=O)c1cc2ccccc2nc1C12CC3CC(CC(C3)C1)C2	BACTEC	inhibition			H37Ra		6.25 µg/mL	32%
Cc1nc(Cl)c(C(N)=O)nc1C	BACTEC	MIC			H37Rv			≥12.5 µg/mL
O=C1NC(=Nc2ccc(Cl)cc2Cl)N/C1=C\c1ccccc1Cl		inhibition			H37Rv		12.5 µg/mL	37%
NNC(=O)c1ccnc2ccccc12	BACTEC	MIC			H37Ra			>6.25 µg/mL
S=C(Nc1ccccc1)Nc1ccc(-c2nnc(Nc3ccc(Cl)cc3)s2)cc1		EC50			H37Rv			>6.25 µg/mL
O=[N+]([O-])c1cn2c(n1)OC[C@@H](OCc1ccc(/C=C/c3ccc(C(F)(F)F)cc3)cc1)C2	resazurin	MIC90						0.02 µM